Data source: PubChem BioAssay AID504761 (Drosophila RNAi Screening Center, 2011)

Screen: 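Genome-wide fly cell screen for genes dengue virus requires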 (primary screen)
System: D.Mel-2 cells from Drosophila
Reagent: long dsRNA against Drosophila genes
Challenge: infection with dengue virus type 2; dose and infection time not stated
Detection: 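Per well on two replicate plates, imaging gave the percent of cells positive for viral envelope protein, ranked by infection, and a nuclear count of cells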
Direction: infection score: higher = more virus-infected cells; cell count: higher = more cells in the well
Call rule: 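Low infection ranks in the two replicates (chance level up to 0.065) followed by a retest with a 1.5-fold or larger significant decrease, p below 0.05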
Meaning of the calls: active = confirmed: knock-down lowers infection; inactive = not picked or not confirmed
In all, the deposit lists about 22,000 reagents; shown is an unselected part of those that have a named target and a result. Of all reagents, 116 (0.52%) got an active call. 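Calls depend on retest data that are not deposited; infection was ranked per plate without normalising between plates; the unit of the infection score is not given.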 Raw values are not corrected between plates. The record does not give: the amount of reagent, the time to read-out.

target gene | PubChem SID | infection score, replicate 1 | infection score, replicate 2 | cell count, replicate 1 | cell count, replicate 2 | Outcome
kat-60L1 (GeneID 40715) | SID104191976 | 8.72 | 18.2 | 5952 | 5890 | inactive
kat-60L1 (GeneID 40715) | SID104203960 | 0.06 | 0.22 | 6360 | 6360 | active
CG1698 (GeneID 36006) | SID104186432 | 32.9 | 14.4 | 4501 | 5838 | inactive
CG1698 (GeneID 36006) | SID104203134 | 2.35 | 3.63 | 5827 | 6276 | inactive
mus304 (GeneID 40003) | SID104191164 | 2.79 | 2.42 | 6140 | 6369 | inactive
Nplp2 (GeneID 50286) | SID104189616 | 2.6 | 3.03 | 6226 | 6010 | inactive
CG1545 (GeneID 32036) | SID104201250 | 3.16 | 6.12 | 5863 | 6910 | inactive
Sps1 (GeneID 36587) | SID104187341 | 20.3 | 10.8 | 4503 | 4849 | inactive
CR16735 (GeneID 10178810) | SID104194936 | 4.01 | 21.7 | 6407 | 6020 | inactive
Ugt303B3 (GeneID 42774) | SID104193991 | 2.51 | 8.16 | 6801 | 6681 | inactive
Ugt303B3 (GeneID 42774) | SID104204930 | 0.88 | 2.63 | 5891 | 5811 | inactive
CG32107 (GeneID 317856) | SID104189013 | 3.04 | 5.63 | 5793 | 6002 | inactive
CG15743 (GeneID 32279) | SID104199501 | 4.46 | 13.8 | 5876 | 6281 | inactive
CG15743 (GeneID 32279) | SID104204933 | 1.6 | 5.7 | 6323 | 6303 | inactive
TwdlS (GeneID 43209) | SID104194529 | 8.13 | 1 | 4229 | 603 | inactive
Dhx15 (GeneID 35654) | SID104185828 | 10.7 | 11.2 | 6094 | 6797 | inactive
Dhx15 (GeneID 35654) | SID104208638 | 2.92 | 9.1 | 6702 | 6019 | inactive
CG5342 (GeneID 41389) | SID104195568 | 6.74 | 6.37 | 6036 | 6328 | inactive
PolQ (GeneID 41571) | SID104196798 | 3.58 | 5.22 | 6229 | 6069 | inactive
CG12035 (GeneID 38217) | SID104188030 | 9.91 | 16.4 | 5297 | 4845 | inactive
CG31954 (GeneID 33572) | SID104180372 | 5.91 | 4.29 | 6401 | 6247 | inactive
CG31954 (GeneID 33572) | SID104206735 | 12.3 | 9.84 | 6608 | 6771 | inactive
CG12106 (GeneID 31856) | SID104197597 | 2.5 | 1.32 | 6773 | 6741 | inactive
Sik2 (GeneID 31170) | SID104198314 | 15.4 | 1.31 | 2650 | 6109 | inactive
msl-2 (GeneID 33565) | SID104180621 | 1.49 | 0.54 | 6183 | 6472 | inactive
msl-2 (GeneID 33565) | SID104206752 | 5.26 | 12.2 | 1427 | 3697 | inactive
SkpC (GeneID 32996) | SID104200167 | 6.91 | 2.08 | 5167 | 5720 | inactive
SkpC (GeneID 32996) | SID104205470 | 12.6 | 6.19 | 5688 | 6558 | inactive
Zip102B (GeneID 43786) | SID104196947 | 0.93 | 7.71 | 7192 | 4711 | inactive
Zip102B (GeneID 43786) | SID104204545 | 2.31 | 8.41 | 6847 | 6622 | inactive
tim (GeneID 33571) | SID104180633 | 1.12 | 2.64 | 6489 | 5878 | inactive
mmm (GeneID 38851) | SID104190000 | 1.86 | 1.15 | 6070 | 6166 | inactive
trr (GeneID 31149) | SID104202647 | 9.26 | 4.18 | 4861 | 5431 | inactive
trr (GeneID 31149) | SID104207320 | 15.9 | 8.12 | 2696 | 1502 | inactive
CG42365 (GeneID 37469) | SID104184058 | 3.71 | 3.59 | 6415 | 6915 | inactive
stl (GeneID 37619) | SID104184188 | 22.8 | 7.79 | 6065 | 6268 | inactive
mRpS23 (GeneID 318977) | SID104181140 | 3.57 | 5.62 | 5042 | 4623 | inactive
CG5645 (GeneID 39382) | SID104190324 | 5.8 | 4.59 | 5944 | 5883 | inactive
ci (GeneID 43767) | SID104196964 | – | 5.94 | 368 | 1600 | inactive

In a second layout: entries from further up
target gene	PubChem SID	infection score, replicate 1	infection score, replicate 2	cell count, replicate 1	cell count, replicate 2	Outcome
Ugt303B3 (GeneID 42774)	SID104204930	0.88	2.63	5891	5811	inactive
CG32107 (GeneID 317856)	SID104189013	3.04	5.63	5793	6002	inactive
CG15743 (GeneID 32279)	SID104199501	4.46	13.8	5876	6281	inactive
